US20150376238A1, “Polypeptides for treating and/or limiting influenza infection” (University of Washington, published 2015)

Biological target: H2 hemagglutinin (A/Adachi/2/1957) (Influenza A virus A/Adachi/2/1957 (H2N2))
Assay: yeast surface display titration

B1: 52alt1-3 (designed binder)
chain: GIVNVPNPNTTKYQQLARSAIAIYNNHQNAHLEFVENLNVKEQVSYGAMYYITLAATDDAGKKKIYKAKVGVVESAGWVGVEEFKLV
Kd: 8.5 nM
